Experimental data: PubChem BioAssay AID1224833 (University of Georgia, 2016)
Test: 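Human genes whose knock-down alters rotavirus replication in monkey cells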 (primary screen). Cell system: monkey MA104 kidney cells. Reagent: siRNA pool against human genes, 50 nM. Duration: 48 h knock-down before infection; read 24 h after infection. Conditions: infection with rotavirus strain RV3 two days after transfection; infectious dose for this stage not given. Measured: 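Rotavirus antigen per well by fluorescent immunoassay, normalised to non-targeting control wells on each plate and given as a standard z-score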. Scale: z-score vs non-targeting control: higher = more rotavirus replication than with non-targeting control. Active means: In these data the active calls have z-score vs non-targeting control at about -1 or lower, or at about 1 or higher. Calls: active = z-score beyond 1 either way; inactive = z-score within 1 of zero.
In all, the deposit lists about 12,000 reagents; below is a random part of them. About 5,600 of them (46%) count as active. 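Active calls cover z-scores past 1 in both directions, so they include lowered as well as raised rotavirus replication.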

TEX13B (testis expressed 13B)
- z-score vs non-targeting control: -1.68
- Call: active

CABP5 (calcium binding protein 5)
- z-score vs non-targeting control: -1.89
- Call: active

CAMSAP3
- z-score vs non-targeting control: 1.48
- Call: active

ZBTB3 (zinc finger and BTB domain containing 3)
- z-score vs non-targeting control: -0.515
- Call: inactive

SYNGR1 (synaptogyrin 1)
- z-score vs non-targeting control: 1.79
- Call: active

IFT172 (intraflagellar transport 172)
- z-score vs non-targeting control: 1.2
- Call: active

ARPC5L (actin related protein 2/3 complex subunit 5 like)
- z-score vs non-targeting control: -0.601
- Call: inactive

KPRP (keratinocyte proline rich protein)
- z-score vs non-targeting control: -1.35
- Call: active

NID1 (nidogen 1)
- z-score vs non-targeting control: -0.698
- Call: inactive

TOP2A (DNA topoisomerase II alpha)
- z-score vs non-targeting control: -1.04
- Call: active

WDR89 (WD repeat domain 89)
- z-score vs non-targeting control: 0.324
- Call: inactive

CNOT10 (CCR4-NOT transcription complex subunit 10)
- z-score vs non-targeting control: -0.543
- Call: inactive

PCDHGB7 (protocadherin gamma subfamily B, 7)
- z-score vs non-targeting control: -0.736
- Call: inactive

GPSM2 (G protein signaling modulator 2)
- z-score vs non-targeting control: -0.55
- Call: inactive

HAPLN3 (hyaluronan and proteoglycan link protein 3)
- z-score vs non-targeting control: 0.581
- Call: inactive

RASSF5 (Ras association domain family member 5)
- z-score vs non-targeting control: -0.303
- Call: inactive

C1orf52 (chromosome 1 open reading frame 52)
- z-score vs non-targeting control: 0.845
- Call: inactive

CXXC4 (CXXC finger protein 4)
- z-score vs non-targeting control: -1.41
- Call: active

SALL2 (spalt like transcription factor 2)
- z-score vs non-targeting control: 2.16
- Call: active

AHSG (alpha 2-HS glycoprotein)
- z-score vs non-targeting control: -0.71
- Call: inactive

PPAN (peter pan homolog)
- z-score vs non-targeting control: 1.65
- Call: active

SULT1E1 (sulfotransferase family 1E member 1)
- z-score vs non-targeting control: -1.29
- Call: active

ERGIC3 (ERGIC and golgi 3)
- z-score vs non-targeting control: 1.38
- Call: active

ZNF750 (zinc finger protein 750)
- z-score vs non-targeting control: 0.732
- Call: inactive

HPR (haptoglobin-related protein)
- z-score vs non-targeting control: 1.55
- Call: active

ARMC3 (armadillo repeat containing 3)
- z-score vs non-targeting control: -0.114
- Call: inactive

Next part, starting with the last 4 of the part before.
ERGIC3 (ERGIC and golgi 3)
- z-score vs non-targeting control: 1.38
- Call: active

ZNF750 (zinc finger protein 750)
- z-score vs non-targeting control: 0.732
- Call: inactive

HPR (haptoglobin-related protein)
- z-score vs non-targeting control: 1.55
- Call: active

ARMC3 (armadillo repeat containing 3)
- z-score vs non-targeting control: -0.114
- Call: inactive

CCNP (cyclin P)
- z-score vs non-targeting control: -0.655
- Call: inactive

CCAR2 (cell cycle and apoptosis regulator 2)
- z-score vs non-targeting control: -1.42
- Call: active

ADH1A (alcohol dehydrogenase 1A (class I), alpha polypeptide)
- z-score vs non-targeting control: -2.19
- Call: active

WNT2B (Wnt family member 2B)
- z-score vs non-targeting control: -0.583
- Call: inactive

ZC3H6 (zinc finger CCCH-type containing 6)
- z-score vs non-targeting control: -1.31
- Call: active

CLTA (clathrin light chain A)
- z-score vs non-targeting control: -1.72
- Call: active

FCGR1A (Fc gamma receptor Ia)
- z-score vs non-targeting control: -1.76
- Call: active

MAOA (monoamine oxidase A)
- z-score vs non-targeting control: -0.762
- Call: inactive

U2SURP (U2 snRNP associated SURP domain containing)
- z-score vs non-targeting control: 1.34
- Call: active

CARMIL3 (capping protein regulator and myosin 1 linker 3)
- z-score vs non-targeting control: 2.65
- Call: active

IQCE (IQ motif containing E)
- z-score vs non-targeting control: -1.87
- Call: active

COL27A1 (collagen type XXVII alpha 1 chain)
- z-score vs non-targeting control: 0.641
- Call: inactive

OTOF (otoferlin)
- z-score vs non-targeting control: 0.24
- Call: inactive

COQ10A (coenzyme Q10A)
- z-score vs non-targeting control: 0.499
- Call: inactive

RAP1B (RAP1B, member of RAS oncogene family)
- z-score vs non-targeting control: 0.836
- Call: inactive

SLC35F4
- z-score vs non-targeting control: 2.26
- Call: active

MS4A8 (membrane spanning 4-domains A8)
- z-score vs non-targeting control: 0.683
- Call: inactive

TMEM38B (transmembrane protein 38B)
- z-score vs non-targeting control: -0.659
- Call: inactive

SPEM1 (spermatid maturation 1)
- z-score vs non-targeting control: -1.3
- Call: active

TAPBPL (TAP binding protein like)
- z-score vs non-targeting control: -0.723
- Call: inactive

RBM17 (RNA binding motif protein 17)
- z-score vs non-targeting control: 0.0063
- Call: inactive

KIR3DL2
- z-score vs non-targeting control: 0.505
- Call: inactive

PRR14 (proline rich 14)
- z-score vs non-targeting control: 0.494
- Call: inactive

CST3 (cystatin C)
- z-score vs non-targeting control: 1.3
- Call: active

GDI2 (GDP dissociation inhibitor 2)
- z-score vs non-targeting control: -3.17
- Call: active

SUN1 (Sad1 and UNC84 domain containing 1)
- z-score vs non-targeting control: -0.901
- Call: inactive

EML5 (EMAP like 5)
- z-score vs non-targeting control: 0.53
- Call: inactive

E2F6 (E2F transcription factor 6)
- z-score vs non-targeting control: -2.05
- Call: active

PEX12 (peroxisomal biogenesis factor 12)
- z-score vs non-targeting control: -0.025
- Call: inactive

REC8 (REC8 meiotic cohesin complex component)
- z-score vs non-targeting control: 0.0443
- Call: inactive

RABEPK (Rab9 effector protein with kelch motifs)
- z-score vs non-targeting control: -3.08
- Call: active

ADAMTS14 (ADAM metallopeptidase with thrombospondin type 1 motif 14)
- z-score vs non-targeting control: 0.947
- Call: inactive

HYAL2 (hyaluronidase 2)
- z-score vs non-targeting control: -1.71
- Call: active

WNT1 (Wnt family member 1)
- z-score vs non-targeting control: 0.258
- Call: inactive
